Source: patent publication US20120027677A1

Biological target: PrP^Sc, pathogenic form of the human prion protein (from CJD brain homogenate) (human), P04156

Which Mean (% of 68) does the source give for GGGQWNKPSKPKTN [peptide of SEQ ID NO: 14] here?
The Mean (% of 68) was 5.58%.

What about the Mean (ELISA signal) of the same binder?
Its Mean (ELISA signal) is 4.74 RLU.
